In this assay the target is H5 HA (A/Vietnam/1194/04) (Influenza A virus A/Vietnam/1194/2004 …, UniProt C5MRF4, strain). Briefly: SPR.

B1: mouse monoclonal antibody H5M9 (antibody, V domains shown)
VH: EVHLQQSGPELVKPGASVKMSCKTSGYTFTEYTIHWMKQSHGKSLEWIGGIFPNNGDTTYNQKFKIRATLTVGKSSSTAYMDLRSLTSEDSAVYYCVRNYGSSYGYFDVWGAGTTVTVSS
VL: DIVLTQSPGSLTVSLGQRATISCRASESVDNFGKSFMHWYQQKPGQSPKLLIYRASNREFGIPARFNGSGSGTDFALTINPVEADDVATYFCQQSNEDPRTFGGGTKLEIK
notes: also called mH5M9; source: purified from mouse ascites by caprylic acid-ammonium sulfate precipitation
In turn, B1 gave a dissociation constant (Kd) of 0.0305 nM.

B2: chimeric H5M9 (antibody, V domains shown)
VH: EVHLQQSGPELVKPGASVKMSCKTSGYTFTEYTIHWMKQSHGKSLEWIGGIFPNNGDTTYNQKFKIRATLTVGKSSSTAYMDLRSLTSEDSAVYYCVRNYGSSYGYFDVWGAGTTVTVSS
VL: DIVLTQSPGSLTVSLGQRATISCRASESVDNFGKSFMHWYQQKPGQSPKLLIYRASNREFGIPARFNGSGSGTDFALTINPVEADDVATYFCQQSNEDPRTFGGGTKLEIK
With B2, the affinity, expressed as Kd, was 0.0431 nM.

Values taken from article PMC3928294 (PLoS ONE, 2014).
